Reference: PMC9646764 (2022)

How the values were obtained:
Dog TFPI-Fc [1] = molecular target: T1, Dog TFPI-Fc (dog, UniProt A0A8I3P810 29-209)
T1 chain: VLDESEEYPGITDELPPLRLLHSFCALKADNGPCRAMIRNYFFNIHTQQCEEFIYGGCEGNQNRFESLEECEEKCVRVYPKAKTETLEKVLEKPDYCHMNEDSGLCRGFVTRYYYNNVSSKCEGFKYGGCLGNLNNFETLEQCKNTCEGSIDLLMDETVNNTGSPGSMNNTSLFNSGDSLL

Cattle TFPI-Fc [2] = molecular target: T2, Cattle TFPI-Fc (cattle, UniProt A0A3Q1NLA0 25-208)
T2 chain: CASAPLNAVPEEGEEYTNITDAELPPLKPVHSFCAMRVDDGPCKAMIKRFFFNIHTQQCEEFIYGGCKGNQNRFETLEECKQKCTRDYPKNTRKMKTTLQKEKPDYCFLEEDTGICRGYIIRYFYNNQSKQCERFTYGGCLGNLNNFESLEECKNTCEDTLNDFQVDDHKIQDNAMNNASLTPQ

Dog TFPI-Fc [3] = molecular target: T1, Dog TFPI-Fc
Cattle TFPI-Fc [4] = molecular target: T2, Cattle TFPI-Fc

B1: TcdB4.2_(1286-1805) (domain or fragment)
chain: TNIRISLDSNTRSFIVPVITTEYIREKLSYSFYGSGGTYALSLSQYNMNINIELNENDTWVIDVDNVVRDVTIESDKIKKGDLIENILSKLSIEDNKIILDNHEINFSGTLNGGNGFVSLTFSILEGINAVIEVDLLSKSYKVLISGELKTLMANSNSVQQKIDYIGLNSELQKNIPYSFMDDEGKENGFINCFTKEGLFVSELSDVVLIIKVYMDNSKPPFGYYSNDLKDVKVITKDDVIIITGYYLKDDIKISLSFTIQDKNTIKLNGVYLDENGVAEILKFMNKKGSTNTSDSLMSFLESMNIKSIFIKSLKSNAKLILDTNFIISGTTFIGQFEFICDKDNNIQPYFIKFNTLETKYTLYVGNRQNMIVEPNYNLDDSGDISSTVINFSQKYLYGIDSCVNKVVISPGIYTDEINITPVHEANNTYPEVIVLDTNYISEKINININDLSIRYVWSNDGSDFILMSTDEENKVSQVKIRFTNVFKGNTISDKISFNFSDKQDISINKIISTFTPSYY
Dog TFPI-Fc [1]
  Kd: 15.2 nM
Cattle TFPI-Fc [2]
  Kd: 536 nM
Dog TFPI-Fc [3]
  koff: 0.000395 s⁻¹
Cattle TFPI-Fc [4]
  koff: 0.0138 s⁻¹
